Data as given in ChEMBL document CHEMBL1201862, “PubChem BioAssay data set” (2004).
Some of the results follow. The calls are words filed in the database; no cut-off is given here. These assays gave more results; the selection is not random.

Assay: qHTS for Inhibitors of AMA1-RON; Towards Development of Antimalarial Drug Lead: Primary Screen.
Assay type: functional

SMILES	Potency
O=[N+]([O-])c1cc([N+](=O)[O-])c(Nc2ccc(Cl)cc2)c([N+](=O)[O-])c1	active: 28.2 µM
O=C1C(O)=C([N+](=O)[O-])C(=O)C(O)=C1[N+](=O)[O-]	active: 28.2 µM
Cc1ccc(Nc2c([N+](=O)[O-])cc([N+](=O)[O-])cc2[N+](=O)[O-])cc1	active: 22.4 µM
